# Share of PSTVd loop 15 variants by leaf site

The measurements come from Wu et al. 2024 (doi:10.1371/journal.ppat.1012142).

PSTVd intermediate strain, loop 15: wild type GGAAACCGCUACUAC, pool pattern GGAAACCGNNNNNNC; upper and lower strand joined, each 5' to 3', the first 7 letters being the upper strand, closing pairs included.

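Three N. benthamiana plants were inoculated with the whole mutant pool. Progeny were sequenced from the inoculated region (day 5), the margin of the inoculated leaf (day 10) and systemic leaves (day 12).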

Values are reads per thousand in the sample; higher means more abundant, 0 means not found.
Each site shows the three plants.
"Pool" is the share in the plasmid pool used as inoculum, on the same scale.
The inoculated region was read from the minus strand, the other sites from the plus strand.
The authors trace changes outside the varied positions to PCR and sequencing errors or to mutation in the plant; presence does not show that a variant is infectious alone.

sequence,pool,inoculated region,leaf margin,systemic leaves
GGAAACCGGAACAGC,0.176,0.0983 0.145 0.0952,0.0323 0 0.0601,0 0 0
GGAAACCGGAACAUC,0.272,0.0491 0.0643 0.171,0 0 0,0 0 0
GGAAACCGGAACCAC,0.224,0.0655 0.0964 0.0762,0 0.0223 0.0401,0 0 0
GGAAACCGGAACCCC,0.336,0.164 0.241 0.190,0 0 0.0401,0.0161 0 0
GGAAACCGGAACCGC,0.240,0.0819 0.0482 0.0952,0 0.0223 0,0 0 0
GGAAACCGGAACCUC,0.208,0.0983 0.129 0.0952,0 0 0.0401,0 0 0
GGAAACCGGAACGAC,0.240,0.0983 0.0964 0.0762,0.0323 0.0223 0.0401,0 0 0
GGAAACCGGAACGCC,0.208,0.0983 0.0643 0.0190,0.0162 0.0445 0,0 0 0
GGAAACCGGAACGGC,0.256,0.164 0.0482 0.0762,0.0323 0.0223 0.0401,0 0 0
GGAAACCGGAACGUC,0.208,0.0819 0.112 0.0762,0 0 0,0 0 0
GGAAACCGGAACUAC,0.192,0.328 0.177 0.324,0.129 0.0445 0.220,0.0483 0.0151 0.0684
GGAAACCGGAACUCC,0.224,0.131 0.0964 0.0381,0 0.0223 0,0.0161 0.0151 0
GGAAACCGGAACUGC,0.224,0.0328 0.112 0.0190,0 0 0.0401,0 0 0
GGAAACCGGAACUUC,0.224,0.295 0.369 0.438,0.0808 0.0445 0.0601,0.0161 0 0
GGAAACCGGAAGAAC,0.240,0.328 0.273 0.457,0.113 0.0223 0.200,0.0322 0.106 0.160
GGAAACCGGAAGACC,0.224,0.0819 0.0643 0.190,0 0.0223 0,0.0161 0 0
GGAAACCGGAAGAGC,0.304,0.0819 0.177 0.114,0 0 0.0200,0.0161 0 0
GGAAACCGGAAGAUC,0.160,0.131 0.161 0.0762,0 0 0.0200,0 0 0
GGAAACCGGAAGCAC,0.288,0.0655 0.241 0.133,0 0.0223 0.0200,0.0161 0 0
GGAAACCGGAAGCCC,0.304,0.147 0.177 0.0952,0 0 0,0 0 0
GGAAACCGGAAGCGC,0.256,0.0983 0.112 0.133,0.0323 0 0.0200,0 0 0
GGAAACCGGAAGCUC,0.192,0.180 0.0643 0.114,0 0 0.0401,0 0 0
GGAAACCGGAAGGAC,0.240,0.197 0.257 0.286,0.0970 0.156 0.100,0 0 0
GGAAACCGGAAGGCC,0.192,0.0819 0.0643 0.0571,0.0162 0 0,0 0 0
GGAAACCGGAAGGGC,0.208,0.0819 0 0.0571,0 0 0.0200,0 0 0
GGAAACCGGAAGGUC,0.160,0.0819 0.0643 0.0571,0.0162 0 0,0 0 0
GGAAACCGGAAGUAC,0.320,0.393 0.434 0.343,0.162 0.111 0.120,0.0161 0.121 0.0456
GGAAACCGGAAGUCC,0.256,0.311 0.386 0.438,0.129 0.0445 0.200,0.0483 0 0
GGAAACCGGAAGUGC,0.192,0.295 0.289 0.419,0.0808 0.0223 0.0801,0.0161 0.106 0.0684
GGAAACCGGAAGUUC,0.208,0.377 0.386 0.324,0.0970 0.0445 0.100,0.0322 0.0756 0.137
GGAAACCGGAAUAAC,0.160,0.0655 0.0803 0.0952,0 0.0223 0.0401,0.0322 0 0
GGAAACCGGAAUACC,0.272,0.147 0.0321 0.152,0 0.0223 0,0 0 0
GGAAACCGGAAUAGC,0.304,0.147 0.0964 0.0952,0 0.0223 0,0 0 0
GGAAACCGGAAUAUC,0.160,0.0983 0.0964 0.0762,0 0.0223 0,0.0161 0 0
GGAAACCGGAAUCAC,0.208,0.131 0.0964 0.0571,0 0 0,0.0161 0 0
GGAAACCGGAAUCCC,0.256,0.0491 0.0803 0.0762,0 0 0.0200,0 0 0
GGAAACCGGAAUCGC,0.144,0.0819 0.112 0.0571,0 0 0.0200,0 0 0
GGAAACCGGAAUCUC,0.352,0.0491 0.0643 0.0762,0.0162 0 0.0200,0.0161 0 0
GGAAACCGGAAUGAC,0.224,0.115 0.129 0.152,0.0162 0 0,0.0161 0 0
GGAAACCGGAAUGCC,0.208,0.0655 0.0964 0.114,0.0162 0 0.0200,0 0 0

A selection of 3 entries from above:

- GGAAACCGGAAGCGC (pool 0.256): inoculated region 0.0983 0.112 0.133; leaf margin 0.0323 0 0.0200; systemic leaves 0 0 0
- GGAAACCGGAACCUC (pool 0.208): inoculated region 0.0983 0.129 0.0952; leaf margin 0 0 0.0401; systemic leaves 0 0 0
- GGAAACCGGAAGAGC (pool 0.304): inoculated region 0.0819 0.177 0.114; leaf margin 0 0 0.0200; systemic leaves 0.0161 0 0

With 43,870-66,106 reads a sample, very low values are single reads.
For reference, wild type rose from 33.9 per thousand in the pool to 202, 200, 159 (inoculated region), 724, 746, 710 (leaf margin) and 856, 883, 880 (systemic leaves).